Compound potency records, mixed from different reports. Data source: NIAID ChemDB in PubChem.

All rows: tests in culture

Zone: diameter of growth inhibition. Percent inhibition refers to the dose given; in toxicity tests it is the harm to the cells. Blank or dashed fields: not listed here. MIC50, MIC90 and the like: level of inhibition, or share of isolates inhibited. Rows are shuffled and stem from different studies. ECn: concentration that inhibits the pathogen or its effect by n%.

CCCCCc1ccc(NC(=O)NNC(=O)c2ccncc2)cc1 ; agent: Mycobacterium kansasii ; strain: My 235/80 ; read by: broth dilution ; setting: 21 d ; endpoint: MIC100 ; result: 125 µM
CO[C@@]1(NC(=O)CSCC#N)C(=O)N2C(C(=O)O)=C(CSc3nnnn3C)CS[C@@H]21 ; agent: Mycobacterium fortuitum ; strain: 1004-8 ; endpoint: MIC ; result: 12.5 µg/mL
Oc1ccc(-c2n[nH]c(C(F)(F)F)c2-c2ccccc2)c(O)c1 ; agent: Mycobacterium marinum ; read by: visual reading ; endpoint: MIC ; result: 50 µg/mL
Cc1ccc(NC(=O)NNC(=O)c2ccncc2)cc1 ; agent: Mycobacterium kansasii ; strain: My 235/80 ; read by: broth dilution ; setting: 14 d ; endpoint: MIC100 ; result: 125 µM
CO[C@H]1/C=C/O[C@@]2(C)Oc3c(C)c(O)c4c(O)c(c(/C=N/N5CCN(C6CCCC6)CC5)c(O)c4c3C2=O)NC(=O)/C(C)=C\C=C\[C@H](C)[C@H](O)[C@@H](C)[C@@H](O)[C@@H](C)[C@H](OC(C)=O)[C@@H]1C ; agent: Mycobacterium avium intracellulare ; strain: 12-Feb ; endpoint: MIC ; result: 0.5 µg/mL
CC(C)CNCCNCC(C)C ; agent: Mycobacterium smegmatis ; strain: ATCC 607 ; endpoint: inhibition ; tested at: 250 µg/mL ; result: 0%
CCCCCCCCCCCCCCCCCCCCCCOC(=O)NC(C)(CCC(=O)O)CCC(=O)O ; agent: Mycobacterium abscessus ; strain: AAy-P-1 ; endpoint: MIC ; result: 576 µg/mL
CCCCCCCc1ccc(NC(=O)NNC(=O)c2ccncc2)cc1 ; agent: Mycobacterium kansasii ; strain: My 235/80 ; read by: broth dilution ; setting: 14 d ; endpoint: MIC100 ; result: 125 µM
COc1ccc(-c2n[nH]c(C(F)(F)F)c2-c2ccc(Cl)cc2)c(O)c1 ; agent: Mycobacterium marinum ; read by: visual reading ; endpoint: MIC ; result: 50 µg/mL
CCC1CN(c2c(F)cc3c(=O)n(N)c(=O)n(C4CC4)c3c2OC)CCN1 ; agent: Mycobacterium smegmatis ; strain: D95Y mutant ; endpoint: MIC99 ; result: 10 µg/mL
CC(C)c1ccc(NC(=O)NNC(=O)c2ccncc2)cc1 ; agent: Mycobacterium kansasii ; strain: My 235/80 ; read by: broth dilution ; setting: 7 d ; endpoint: MIC100 ; result: 16 µM
CCCC(C)NCCNC(C)CCC ; agent: Mycobacterium smegmatis ; strain: ATCC 607 ; endpoint: inhibition ; tested at: 250 µg/mL ; result: 0%
COc1ccc(-c2c(-c3ccc(OCc4ccccc4F)cc3O)n[nH]c2C(F)(F)F)cc1 ; agent: Mycobacterium marinum ; read by: visual reading ; endpoint: MIC ; result: >50 µg/mL
CO[C@@]1(NC(=O)C(C(=O)O)c2ccc(O)cc2)C(=O)N2C(C(=O)O)=C(CSc3nnnn3C)CO[C@@H]21 ; agent: Mycobacterium fortuitum ; strain: AO5 ; endpoint: MIC ; result: 50 µg/mL
CCCCCCCCCCCCCCCC(=O)NC(CCC(=O)O)(CCC(=O)O)CCC(=O)O ; agent: Mycobacterium marinum ; strain: ATCC 927 ; endpoint: MIC ; result: 288 µg/mL
COc1ccc(/C=N/n2c(C)nn(Cc3cn(CCCn4cc(Cn5nc(C)n(/N=C/c6ccc(OC)cc6)c5=O)nn4)nn3)c2=O)cc1 ; agent: Mycobacterium luteus ; read by: agar diffusion ; endpoint: zone ; tested at: 20 mg/mL ; result: 0.6 mm
CCCCCCCCC(CCCCCCCC)NC(=O)NC(CCC(=O)O)(CCC(=O)O)CCC(=O)O ; agent: Mycobacterium abscessus ; strain: AAy-P-1 ; endpoint: MIC ; result: 108 µg/mL
Cc1c(N2CC[C@@H](CN)C2)c(F)cc2c(=O)n(N)c(=O)n(C3CC3)c12 ; agent: Mycobacterium smegmatis ; strain: G89C mutant ; endpoint: MIC99 ; result: 0.156 µg/mL
CCCCCCCCCCCCCCCCCC(=O)NC(CCC(=O)O)(CCC(=O)O)CCC(=O)O ; agent: Mycobacterium chelonae ; strain: EO-P-1 ; endpoint: MIC ; result: 27 µg/mL
O=C(NNC(=O)c1ccncc1)Nc1ccc(Cl)c(Cl)c1 ; agent: Mycobacterium kansasii ; strain: My 6509/96 ; read by: broth dilution ; setting: 21 d ; endpoint: MIC100 ; result: 125 µM
COc1ccc(/C=N/n2c(C)nn(Cc3cn(CCCCCCCCCCn4cc(Cn5nc(C)n(/N=C/c6ccc(OC)cc6)c5=O)nn4)nn3)c2=O)cc1 ; agent: Mycobacterium luteus ; read by: agar diffusion ; endpoint: zone ; tested at: 20 mg/mL ; result: 0.6 mm
COc1c(N2CC[C@@H](CN)C2)c(F)cn2c(=O)n(N)c(=O)c(C3CC3)c12 ; agent: Mycobacterium smegmatis ; strain: G89C mutant ; endpoint: MIC99 ; result: 2.5 µg/mL
CC(C)N=c1cc2n(-c3ccc(Cl)cc3)c3ccccc3nc-2cc1Nc1ccc(Cl)cc1 ; agent: Mycobacterium chelonae ; read by: broth dilution ; endpoint: MIC90 ; result: 1 µg/mL
NNC(=O)c1ccncc1 ; agent: Mycobacterium szulgai ; strain: MNT1100 ; read by: MTT / broth dilution / absorbance ; setting: clinical isolate ; endpoint: MIC ; result: >0.5 µg/mL
O=C(NNC(=O)c1ccncc1)Nc1c(Cl)cc(Cl)cc1Cl ; agent: Mycobacterium kansasii ; strain: My 6509/96 ; read by: broth dilution ; setting: 14 d ; endpoint: MIC100 ; result: 125 µM
C[C@@H]1CN(c2c(F)c(N)c3c(=O)c(C(=O)O)cn(C4CC4)c3c2F)C[C@H](C)N1 ; agent: Mycobacterium scrofulaceum ; strain: ATCC 19981 ; read by: broth dilution / visual reading ; endpoint: MIC ; result: 0.5 µg/mL
CCCCCCCCCCCCCCCCCCCCCOC(=O)NC(C)(CCC(=O)O)CCC(=O)O ; agent: Mycobacterium abscessus ; strain: AAy-P-1 ; endpoint: MIC ; result: 72 µg/mL
Cc1ccc(-n2c(=S)oc3ccc(C)cc3c2=S)cc1 ; agent: Mycobacterium kansasii ; strain: My 235/80 ; setting: 14 d ; endpoint: MIC ; result: 2 µM
CCCCCC(C)NCCNC(C)CCCCC ; agent: Mycobacterium smegmatis ; strain: ATCC 607 ; endpoint: inhibition ; tested at: 30 µg/mL ; result: 100%
Oc1cc(OCc2ccccc2Cl)ccc1-c1n[nH]c(C(F)(F)F)c1-c1ccc(Cl)cc1 ; agent: Mycobacterium marinum ; read by: visual reading ; endpoint: MIC ; result: 50 µg/mL
CO[C@@]1(NC(=O)Cn2cnnn2)C(=O)N2C(C(=O)O)=C(CSc3nnc(C)s3)CSC21 ; agent: Mycobacterium fortuitum ; strain: 4-May ; endpoint: MIC ; result: 50 µg/mL
O=c1oc2ccc(Br)cc2c(=S)n1-c1ccccc1 ; agent: Mycobacterium kansasii ; strain: My 235/80 ; setting: 14 d ; endpoint: MIC ; result: 2 µM
O=C(NNC(=O)c1ccncc1)Nc1ccc(Cl)c(C(F)(F)F)c1 ; agent: Mycobacterium kansasii ; strain: My 6509/96 ; read by: broth dilution ; setting: 7 d ; endpoint: MIC100 ; result: 62.5 µM
S=c1oc2ccc(Br)cc2c(=S)n1-c1cccc(Cl)c1 ; agent: Mycobacterium kansasii ; strain: My 235/80 ; setting: 14 d ; endpoint: MIC ; result: 2 µM
CCC(CC)NCCNC(CC)CC ; agent: Mycobacterium smegmatis ; strain: ATCC 607 ; endpoint: EC50 ; result: >250 µg/mL
CO[C@@]1(NC(=O)CCCC(N)C(=O)O)C(=O)N2C(C(=O)O)=C(COC(N)=O)CSC21 ; agent: Mycobacterium fortuitum ; strain: 1261 ; endpoint: MIC ; result: >100 µg/mL
COc1c(N2C[C@@H]3CCCN[C@@H]3C2)c(F)cc2c(=O)[nH]c(=O)n(C3CC3)c12 ; agent: Mycobacterium smegmatis ; strain: D95Y mutant ; endpoint: MIC99 ; result: 400 µg/mL
CC(=O)N(CCN(C(C)=O)C(C)C)C(C)C ; agent: Mycobacterium smegmatis ; strain: ATCC 607 ; endpoint: inhibition ; tested at: 250 µg/mL ; result: 0%
COc1ccc(/C=N/n2c(C)nn(Cc3cn(CCCCn4cc(Cn5nc(C)n(/N=C/c6ccc(OC)cc6)c5=O)nn4)nn3)c2=O)cc1 ; agent: Mycobacterium luteus ; read by: agar diffusion ; endpoint: zone ; tested at: 20 mg/mL ; result: 1.21 mm
CCCCCCCCCCCCCCCCCCCCCCNC(=O)NC(CCC(=O)O)(CCC(=O)O)CCC(=O)O ; agent: Mycobacterium marinum ; strain: ATCC 927 ; endpoint: MIC ; result: 108 µg/mL
CSc1nc(N)c2c(n1)NC(c1ccc(C(F)(F)F)cc1)CC(c1ccc3c(c1)OCO3)=N2 ; agent: Mycobacterium scrofulaceum ; strain: MNT1193 ; read by: MTT / broth dilution / absorbance ; setting: clinical isolate ; endpoint: MIC ; result: >32 µg/mL
COc1c(N2CC[C@@H](CN)C2)c(F)cc2c(=O)n(N)c(=O)n(C3CC3)c12 ; agent: Mycobacterium smegmatis ; strain: A91V mutant ; endpoint: MIC99 ; result: 5 µg/mL
NCC[C@H](O)C(=O)N[C@@H]1C[C@H](N)[C@@H](O[C@H]2O[C@H](CN)[C@@H](O)[C@H](O)[C@H]2O)[C@H](O)[C@H]1O[C@H]1O[C@H](CO)[C@@H](O)[C@H](N)[C@H]1O ; agent: Mycobacterium abscessus ; strain: AAy-P-1 ; endpoint: MIC ; result: 19 µg/mL
CO[C@@]1(NC(=O)Cc2cccs2)C(=O)N2C(C(=O)O)=C(COC(N)=O)CS[C@@H]21 ; agent: Mycobacterium fortuitum ; strain: AO5 ; endpoint: MIC ; result: 25 µg/mL
Nc1nc(N)c2c(n1)NC(c1ccc3c(c1)OCO3)CC(c1ccc(F)cc1)=N2 ; agent: Mycobacterium scrofulaceum ; strain: MNT1193 ; read by: MTT / broth dilution / absorbance ; setting: clinical isolate ; endpoint: MIC ; result: >32 µg/mL
COc1ccc(-c2n[nH]c(C(F)(F)F)c2-c2ccc(Br)cc2)c(O)c1 ; agent: Mycobacterium marinum ; read by: visual reading ; endpoint: MIC ; result: >50 µg/mL
CC1(C)CC[C@]2(C(=O)O)CC[C@]3(C)C(CC[C@@H]4[C@@]5(C)C[C@H](O)CC(C)(C)[C@@H]5CC[C@]43C)[C@@H]2C1 ; agent: Mycobacterium simiae ; read by: resazurin ; endpoint: MIC ; result: 100 µg/mL
CSc1nc(N)c2c(n1)NC(c1ccccc1)CC(c1ccc3c(c1)OCO3)=N2 ; agent: Mycobacterium scrofulaceum ; strain: MNT1193 ; read by: MTT / broth dilution / absorbance ; setting: clinical isolate ; endpoint: MIC ; result: >32 µg/mL
O=c1oc2ccc(Br)cc2c(=S)n1-c1ccc(F)cc1 ; agent: Mycobacterium kansasii ; strain: My 235/80 ; setting: 21 d ; endpoint: MIC ; result: 16 µM
CCCNCCNC(C)C ; agent: Mycobacterium smegmatis ; strain: ATCC 607 ; endpoint: inhibition ; tested at: 125 µg/mL ; result: 100%
Cc1ccc2oc(=O)n(-c3ccc(Cl)c(Cl)c3)c(=S)c2c1 ; agent: Mycobacterium kansasii ; strain: My 235/80 ; setting: 21 d ; endpoint: MIC ; result: 8 µM
O=C(NNC(=O)c1ccncc1)Nc1ccc(Br)c(F)c1 ; agent: Mycobacterium avium ; strain: MY330/88 ; read by: broth dilution ; setting: 21 d ; endpoint: MIC100 ; result: >125 µM
COc1ccc(CCn2c(C)nn(Cc3cn(CCCCCn4cc(Cn5nc(C)n(CCc6ccc(OC)cc6)c5=O)nn4)nn3)c2=O)cc1 ; agent: Mycobacterium luteus ; read by: agar diffusion ; endpoint: zone ; tested at: 20 mg/mL ; result: 0.9 mm

The last 8 rows once more:

| SMILES | agent | strain | read by | setting | endpoint | tested at | result |
|---|---|---|---|---|---|---|---|
| COc1ccc(-c2n[nH]c(C(F)(F)F)c2-c2ccc(Br)cc2)c(O)c1 | Mycobacterium marinum |  | visual reading |  | MIC |  | >50 µg/mL |
| CC1(C)CC[C@]2(C(=O)O)CC[C@]3(C)C(CC[C@@H]4[C@@]5(C)C[C@H](O)CC(C)(C)[C@@H]5CC[C@]43C)[C@@H]2C1 | Mycobacterium simiae |  | resazurin |  | MIC |  | 100 µg/mL |
| CSc1nc(N)c2c(n1)NC(c1ccccc1)CC(c1ccc3c(c1)OCO3)=N2 | Mycobacterium scrofulaceum | MNT1193 | MTT / broth dilution / absorbance | clinical isolate | MIC |  | >32 µg/mL |
| O=c1oc2ccc(Br)cc2c(=S)n1-c1ccc(F)cc1 | Mycobacterium kansasii | My 235/80 |  | 21 d | MIC |  | 16 µM |
| CCCNCCNC(C)C | Mycobacterium smegmatis | ATCC 607 |  |  | inhibition | 125 µg/mL | 100% |
| Cc1ccc2oc(=O)n(-c3ccc(Cl)c(Cl)c3)c(=S)c2c1 | Mycobacterium kansasii | My 235/80 |  | 21 d | MIC |  | 8 µM |
| O=C(NNC(=O)c1ccncc1)Nc1ccc(Br)c(F)c1 | Mycobacterium avium | MY330/88 | broth dilution | 21 d | MIC100 |  | >125 µM |
| COc1ccc(CCn2c(C)nn(Cc3cn(CCCCCn4cc(Cn5nc(C)n(CCc6ccc(OC)cc6)c5=O)nn4)nn3)c2=O)cc1 | Mycobacterium luteus |  | agar diffusion |  | zone | 20 mg/mL | 0.9 mm |